A mixed list of measured activities; the numbers were collected in NIAID ChemDB.

Shared fields: toxicity to cultured cells; cell line: VERO; method: MTT; endpoint: CC50

a–b is a range or a potency band. Rows are shuffled and stem from different studies. CCn is the concentration with n% toxicity to the cells.

SMILES | value
c1ccc(Oc2ccc(-c3nnc(-c4ccc(Oc5ccccc5)cc4)o3)cc2)cc1 | 92.6 µg/mL
C=C[C@]1(C)C[C@@H](OC(=O)CSC(C)(C)CNC(=O)[C@H](N)CC(C)C)[C@]2(C)[C@H](C)CC[C@]3(CCC(=O)[C@H]32)[C@@H](C)[C@@H]1O | 13.96 µg/mL
c1csc(-c2cc3ccccn3c2)c1 | 90 µM
CC(C)(C)NC(=O)C1c2ccccc2CCN1c1cc2c(cc1F)c(=O)c(C(=O)O)c1n2CS1 | 130 µM
CC[C@@H](C(C)C)[C@@H](O)[C@H](O)[C@@H](C)[C@H]1CC[C@H]2[C@@H]3CC(=O)[C@H]4C[C@@H](OC(C)=O)CC[C@]4(C)[C@H]3CC[C@]12C | 238 µM
Fc1ccccc1-c1cc2ccccn2c1 | 500 µM
O=C(O)c1cn2c(n1)CN(c1cc3c(=O)c(C(=O)O)c4n(c3cc1F)CS4)CC2 | >150.1 µM
Cc1ccc2[nH]c(O)c(N=NC(=S)Nc3cccc(Br)c3)c2c1 | 0.704 µg/mL
O=c1ccnc2c(Cl)c3[nH][nH]nc3cc12 | >100 µM
Cc1c(Cl)ccc2cc(/C=C/c3csc(Cl)c3)c(Cl)nc12 | 26.5 µM
COc1cc2c(cc1OC)C1=NN(C(=O)Nc3ccc(Cl)cc3)C(c3ccccc3)C1C2 | >139.4 µM
O=C(O)c1c2n(c3cc([N+](=O)[O-])c(N4CCC(O)(c5ccc(Cl)cc5)CC4)cc3c1=O)CS2 | 64.03 µM
O=C(O)c1c2n(c3cc(N4CCN(Cc5ccc6c(c5)OCO6)CC4)c([N+](=O)[O-])cc3c1=O)CS2 | 126 µM
CCCCc1nc(Cl)c(C2C(C(=O)Nc3ccc([N+](=O)[O-])cc3)=C(C)NC(C)=C2C(=O)Nc2ccc([N+](=O)[O-])cc2)[nH]1 | >10 µg/mL
Clc1cccn2cc(-c3ccccc3)cc12 | >500 µM
Cc1ccn2c(N=O)c(-c3ccccc3)nc2c1 | 52.7 µM
O=C(O)c1c2n(c3cc(N4CCC(n5c(=O)[nH]c6cc(Cl)ccc65)CC4)c([N+](=O)[O-])cc3c1=O)CS2 | 118 µM
Cc1ccc2[nH]c(O)c(N=NC(=S)Nc3ccc(F)cc3)c2c1 | <0.195 µg/mL
CC(C)(C)OC(=O)NC1C2CN(c3cc4c(cc3[N+](=O)[O-])c(=O)c(C(=O)O)c3n4CS3)CC21 | 65.86 µM
CC[C@]1(C)C[C@@H](OC(=O)CSC(C)(C)CNC(=O)[C@H](N)C(C)C)[C@]2(C)[C@H](C)CC[C@]3(CCC(O)[C@H]32)[C@@H](C)[C@@H]1O | 5.26 µg/mL
CCCCNC(=O)Cn1cc(C#Cc2ccc3c4cccc5cccc(c6cccc2c63)c54)c(=O)n(COC(=O)C(C)(C)C)c1=O | >20 µM
O=C(O)c1c2n(c3cc([N+](=O)[O-])c(N4CCN(C(=O)c5ccco5)CC4)cc3c1=O)CS2 | 137 µM
Cc1ncccc1Nc1cc2nc3ccccc3n(-c3ccc(Cl)cc3)c-2cc1=NC1CCOCC1 | 9.73 µg/mL
Cc1cc(C)c(OC(=O)c2ccc(Cl)cc2)c(=O)c(C)c1 | 100 µM
Cc1ccc2[nH]c(O)c(N=NC(=S)Nc3ccc(Cl)cc3)c2c1 | 12.4 µg/mL
COc1cc2c(cc1OC)C(=O)[C@]1(C2)[C@@H](c2ccc(F)cc2)[C@@H]2CSCN2[C@@]12C(=O)N(N1CCOCC1)c1ccccc12 | >62.5 µg/mL
O=C(NN1C(=O)CS(=O)(=O)C1c1ccc(C(F)(F)F)cc1)c1ccncc1 | >160 µM
CC(C)=CCc1ccc(O)c(=O)cc1C(C)C | >100 µM
CC(C)=CCCC1(C)C=Cc2c(ccc(C(=O)/C=C/c3cc(C=O)ccc3O)c2O)O1 | 22.2 µM
Oc1[nH]c2ccc(OC(F)(F)F)cc2c1N=NC(=S)Nc1ccc(Br)cc1 | 5.767 µg/mL
CC(C)=CCCC1(C)C=Cc2c(ccc(C(=O)/C=C/c3ccc(O)c(C=O)c3)c2O)O1 | 9.904 µM
N#Cc1c(SCCCCSc2nsc(-c3ccccc3)c2C#N)nsc1-c1ccccc1 | >4.9 µg/mL
CCCCCCCCCCCCCCCCO[C@H]1N([C@H]2C[C@H](N=[N+]=[N-])[C@@H](CO)O2)C(=O)NC(=O)[C@]1(C)Br | >500 µg/mL
COc1cc2c(cc1OC)C(=O)[C@]1(C2)[C@@H](c2ccccc2)[C@@H]2CSCN2[C@@]12C(=O)Nc1ccc(OC(F)(F)F)cc12 | >62.5 µg/mL
N#Cc1c(SCCCSc2nsc(-c3ccccc3)c2C#N)nsc1-c1ccccc1 | >4.76 µg/mL
CC(CC[C@@H](C)C1CCC2C3C[C@H](COS(=O)(=O)O)C4C[C@H](OS(=O)(=O)O)[C@@H](OS(=O)(=O)O)C[C@]4(C)C3CC[C@@]21C)C(C)(C)C.[Na+].[Na+].[Na+] | 13.83 µg/mL
Nc1ccc(S(=O)(=O)c2ccc(NC(=O)NC34CC5CC(CC(C5)C3)C4)cc2)cc1 | 144 µg/mL
Brc1ccc2cc(-c3ccccc3)cn2c1 | >500 µM
Cn1cnc2c(NC(=O)c3ccccc3C(F)(F)F)nc(Cl)cc21 | 169 µM
CC(=O)c1c(-c2ccc(Cl)c(Cl)c2)cc2ccccn12 | 162 µM
C[C@]12CC[C@@H]3c4ccc(OCC#Cc5cn([C@H]6C[C@H](O)[C@@H](CO)O6)c(=O)[nH]c5=O)cc4CC[C@H]3[C@@H]1CCC2=O | 150 µM
COc1ncccc1Nc1cc2nc3ccccc3n(-c3ccc(F)cc3)c-2cc1=NC1CC1 | >64 µg/mL
CCCCc1nc(Cl)c(C2C(C(=O)Nc3ccc(Cl)cc3)=C(C)NC(C)=C2C(=O)Nc2ccc(Cl)cc2)[nH]1 | 7.8 µg/mL
COc1ccccc1-c1nc2cc3ncccc3cc2[nH]1 | >75 µM
CC1CN(c2cc3c(=O)c(C(=O)O)c4n(c3cc2[N+](=O)[O-])CS4)CC(C)O1 | 79.84 µM
c1c[nH]c2cc3ncnc3cc2c1 | >100 µM
Oc1[nH]c2ccc(OC(F)(F)F)cc2c1N=NC(=S)Nc1ccc(Cl)cc1 | 6.391 µg/mL
O=C(Cn1cc(C#Cc2ccc3c4cccc5cccc(c6cccc2c63)c54)c(=O)[nH]c1=O)NCCCCO | 2–6 µM
C=C[C@]1(C)C[C@@H](OC(=O)CSC(C)(C)CNC[C@H](N)C(C)C)[C@]2(C)[C@H](C)CC[C@]3(CCC(O)[C@H]32)[C@@H](C)[C@@H]1O | 45.3 µg/mL
CCCCc1nc(Cl)c(C2C(C(=O)Nc3ccc(F)cc3)=C(C)NC(C)=C2C(=O)Nc2ccc(F)cc2)[nH]1 | >10 µg/mL
COc1ccc([C@H]2[C@@H]3CSCN3[C@@]3(C(=O)N(N4CCOCC4)c4ccccc43)[C@@]23Cc2cc(OC)c(OC)cc2C3=O)cc1OC | >62.5 µg/mL
C=C(C)C1CC=C(C)/C(=N/NC(=O)c2cccnc2)C1 | 420 µM
O=[N+]([O-])c1cccc(-c2cc3ccccn3c2)c1 | 100–200 µM
CCOC(=O)c1ccc(OC(=O)CCCCCN=C(N)N)cc1.COS(=O)(=O)O | 150 µg/mL
c1coc(-c2cc3ccccn3c2)c1 | >500 µM
c1ccc(Oc2ccc(-c3nnc(-c4ccncc4)o3)cc2)cc1 | 95.5 µg/mL
Cc1csc(/C=C/c2cc3ccc(Cl)c(C)c3nc2Cl)c1 | 46.78 µM
C=C[C@]1(C)C[C@@H](OC(=O)CSC(C)(C)CNC(=O)[C@H](N)C(C)C)[C@]2(C)[C@H](C)CC[C@]3(CCC(=O)[C@H]32)[C@@H](C)[C@@H]1O | 15.59 µg/mL
Oc1c(N=NC(=S)Nc2ccc(F)cc2)c2cc(OC(F)(F)F)ccc2n1CN1CCOCC1 | 2.396 µg/mL
C1=CCC2(CC1)COC(c1ccco1)OC2 | >500 µg/mL
c1ccc(Oc2ccc(-c3nnco3)cc2)cc1 | 99.4 µg/mL
C[C@](N)(Cc1ccc(-c2ccccc2)cc1)C(=O)O | >400 µM
O=c1[nH]c(=O)n([C@H]2C[C@H](O)[C@@H](CO)O2)cc1C#Cc1ccc2c3cccc4cccc(c5cccc1c52)c43 | >20 µM
COc1cc2c(cc1OC)CN(c1cc3c(cc1F)c(=O)c(C(=O)O)c1n3CS1)CC2 | 141 µM
CSc1nsc(-c2ccccc2)c1C#N | 4.64 µg/mL
Fc1cccn2cc(-c3ccccc3)cc12 | >500 µM
CCOC(=O)c1nc(C)c2c(c1N)C(=O)N(Cc1ccccc1)C2O | >100 µM
CCCCNC(=O)Cn1cc(C#Cc2ccc3c4cccc5cccc(c6cccc2c63)c54)c(=O)[nH]c1=O | 6–20 µM
Cc1c(Cl)ccc2cc(/C=C/c3sccc3Br)c(Cl)nc12 | 45.04 µM
Clc1ccc(-c2cc3ccccn3c2)c(Cl)c1 | >500 µM
NC1=NC=NC2C1N=CN2[C@H]1C[C@@H](CCP(=O)(O)O)CO1 | >100 µg/mL
COc1cc2c(cc1OC)C1=NN(C(=O)Nc3ccc([N+](=O)[O-])cc3)C(c3ccc(F)cc3)C1C2 | 94.8 µM
Cc1c(Cl)ccc2cc(/C=C/C(=O)c3ccc(Br)cc3)c(Cl)nc12 | 28.07 µM
CC(=O)NC(CCc1ccc(Cl)c(Cl)c1)c1cccc(O)c(=O)c1 | >100 µM
O=C1C=C(Nc2ccccc2N=C2C(N3C4=CCc5ccccc5C4=Nc4ccccc43)=CC(=O)c3ccccc32)C(=O)c2ccccc21 | 98.5 µM
CC[C@@H](C(C)C)[C@@H](O)[C@H](O)[C@@H](C)[C@H]1CC[C@H]2[C@@H]3CC(=O)[C@@]4(O)C[C@H](O)[C@H](O)C[C@]4(C)[C@H]3CC[C@]12C | 40 µM
COc1cc2c(cc1OC)C(=O)[C@]1(C2)[C@@H](c2ccc(F)cc2)[C@@H]2CSCN2[C@@]12C(=O)Nc1ccc(OC(F)(F)F)cc12 | >62.5 µg/mL

The first 11 rows once more:

SMILES,value
c1ccc(Oc2ccc(-c3nnc(-c4ccc(Oc5ccccc5)cc4)o3)cc2)cc1,92.6 µg/mL
C=C[C@]1(C)C[C@@H](OC(=O)CSC(C)(C)CNC(=O)[C@H](N)CC(C)C)[C@]2(C)[C@H](C)CC[C@]3(CCC(=O)[C@H]32)[C@@H](C)[C@@H]1O,13.96 µg/mL
c1csc(-c2cc3ccccn3c2)c1,90 µM
CC(C)(C)NC(=O)C1c2ccccc2CCN1c1cc2c(cc1F)c(=O)c(C(=O)O)c1n2CS1,130 µM
CC[C@@H](C(C)C)[C@@H](O)[C@H](O)[C@@H](C)[C@H]1CC[C@H]2[C@@H]3CC(=O)[C@H]4C[C@@H](OC(C)=O)CC[C@]4(C)[C@H]3CC[C@]12C,238 µM
Fc1ccccc1-c1cc2ccccn2c1,500 µM
O=C(O)c1cn2c(n1)CN(c1cc3c(=O)c(C(=O)O)c4n(c3cc1F)CS4)CC2,>150.1 µM
Cc1ccc2[nH]c(O)c(N=NC(=S)Nc3cccc(Br)c3)c2c1,0.704 µg/mL
O=c1ccnc2c(Cl)c3[nH][nH]nc3cc12,>100 µM
Cc1c(Cl)ccc2cc(/C=C/c3csc(Cl)c3)c(Cl)nc12,26.5 µM
COc1cc2c(cc1OC)C1=NN(C(=O)Nc3ccc(Cl)cc3)C(c3ccccc3)C1C2,>139.4 µM